Results of unrelated studies side by side (data: NIAID ChemDB).

All rows: growth or infection tests; agent: Candida albicans; measure: MIC

Blank or dashed fields: not listed here. Neighbouring rows are from separate reports.

smiles,strain,method,result
Cc1c(S(=O)(=O)c2ccccc2)[n+](=O)c2ccccc2n1[O-],Clinical isolate 1,,31.25 µg/mL
O=c1c2cccc(O)c2oc2cc(O)cc(O)c12,,,>25 µg/mL
Oc1ccc(Cl)cc1C(=S)Nc1ccc(Cl)cc1,ATCC 44859,,31.3 µM
CCN1CCN(c2nc(NC(=S)N3CCN(Cc4ccc(OC)c(OC)c4OC)CC3)nc3ccccc23)CC1,MTCC 183,agar / visual reading,400 µg/mL
CC(n1ccn(-c2ccc(-n3nccn3)cc2)c1=O)C(O)(Cn1cncn1)c1ccc(F)cc1F,TA,,<0.008 µg/mL
c1ccc(C(c2ccccc2)(c2ccccc2)n2ccnc2)cc1,,,0.5 µM
CC(n1ccn(-c2ccc(-n3cnnn3)cc2)c1=O)C(O)(Cn1cncn1)c1ccc(F)cc1F,TA,,0.008 µg/mL
CC[C@@]1(O)C[C@H](O[C@H]2C[C@H](N(C)C)[C@H](O[C@H]3C[C@H](O)[C@H](O[C@H]4CCC(=O)[C@H](C)O4)[C@H](C)O3)[C@H](C)O2)c2c(cc3c(c2O)C(=O)c2c(O)cccc2C3=O)[C@H]1C(=O)OC,,,0.2 µg/mL
O=C1N=c2ccccc2=C1c1sc(Nc2nnc(-c3ccc(Cl)cc3)o2)nc1O,ATCC 10231,,16 µg/mL
C[C@H](N)C(=O)N[C@@H](C(=O)O)n1cc(F)c(=O)[nH]c1=O,B311,,>100 µg/mL
COc1cc([C@H]2COc3c(ccc(O)c3OC)C2)c(OC)c(O)c1OC,,,>200 µg/mL
CC(C)=CCc1ccc(O)c2oc3cc(O)cc(O)c3c(=O)c12,,,>25 µg/mL
Cc1ccc(-c2cn3nc(Cl)sc3n2)cc1,,agar diffusion,>75 µg/mL
Cc1c(Sc2ccccc2)[n+](=O)c2cc(C(F)(F)F)ccc2n1[O-],Clinical isolate 19,,7.8 µg/mL
COc1ccc(-c2nc3ncccn3c2N=O)cc1,,,65 µg/mL
O=C(Cn1c(=O)oc2cc(C(=O)c3ccccc3F)c(Cl)cc21)c1ccc(Cl)cc1,ATCC 90028,,128 µg/mL
Oc1ccc(Cl)cc1C(=S)Nc1cccc(F)c1,ATCC 44859,,62.5 µM
O=C(N/N=C/c1cc2ccccc2nc1Cl)c1sc(=S)n(-c2ccccc2)c1/N=C/c1cccc(O)c1,MTCC 227,broth dilution,250 µg/mL
O=[N+]([O-])c1nn2cc(-c3ccc(Br)cc3)nc2s1,,agar diffusion,>75 µg/mL
COC(=O)c1c(N)oc2ccc(O)cc12,KCCM 50235,broth dilution,25 µg/mL
O=C(Cn1c(=O)oc2cc(C(=O)c3cccc(F)c3)c(Cl)cc21)c1ccc(Cl)cc1,ATCC 90028,,128 µg/mL
O=C1CCCC2=C1C(c1ccc(F)cc1)N1C(=N2)Sc2c1nn[nH]c2=O,Robin Berkho (AUCC-1720),,>40 µg/mL
O=C(N/N=C/c1cc2ccccc2nc1Cl)c1sc(=S)n(-c2ccccc2)c1/N=C/c1ccccc1,MTCC 227,broth dilution,500 µg/mL
COc1cc(O)c2c(=O)c3ccc(O)c(OC)c3oc2c1,,,>25 µg/mL
O=C(Cn1c(=O)oc2cc(C(=O)c3ccccc3F)c(Cl)cc21)c1ccc(Br)cc1,ATCC 90028,,128 µg/mL
CO[C@H]1[C@@H](O)[C@H](n2ccc(=O)[nH]c2=O)O[C@@H]1[C@@H](O[C@H]1OC(C(=O)NCCSSCCNC(C)=O)=C[C@H](O)[C@@H]1O)C(N)=O,YU-1200,,>100 µg/mL
Cc1ccc(NC2N3N=C(c4ccc(C)cc4)CC3=C3N4NC(=O)c5ccccc5C4=NN32)cc1,,,>200 µg/mL
COC12OC1(C13OC1(OC)C(=O)c1cc4cc(C)oc(=O)c4c(O)c1C3O)C(O)c1c(cc3cc(C)oc(=O)c3c1O)C2=O,A9540,,25 µg/mL
CC(C)=CCc1c(O)cc(O)c2oc3cccc(O)c3c(=O)c12,,,>25 µg/mL
CCC(C)CC(C)CCCCCCCCC(=O)N[C@H]1C[C@@H](O)[C@H](NCCN)NC(=O)[C@@H]2[C@@H](O)CCN2C(=O)[C@H]([C@H](O)CCN)NC(=O)[C@H]([C@H](O)[C@@H](O)c2ccc(O)cc2)NC(=O)[C@@H]2C[C@@H](O)CN2C(=O)[C@H]([C@@H](C)O)NC1=O,Isolate 489 (AMB FCZ 5FC-susceptible),,0.25 µg/mL
CCCCCOc1ccc(-c2cc(-c3ccc(C(=O)N[C@H]4C[C@@H](O)[C@@H](O)NC(=O)[C@@H]5[C@@H](O)[C@@H](C)CN5C(=O)[C@H]([C@H](O)CC(N)=O)NC(=O)[C@H]([C@H](O)[C@@H](O)c5ccc(O)c(OS(=O)(=O)O)c5)NC(=O)[C@@H]5C[C@@H](O)CN5C(=O)[C@H]([C@@H](C)O)NC4=O)cc3)no2)cc1,3 strains,,≤0.0078 µg/mL
CCN1CCN(c2nc(NN=C3SCC(=O)N3c3ccccc3)nc3ccccc23)CC1,MTCC 183,agar / visual reading,12.5 µg/mL
CC[C@@H](C)n1ncn(-c2ccc(N3CCN(c4ccc(OC[C@H]5CO[C@](Cn6cncn6)(c6ccccn6)O5)cc4)CC3)cc2)c1=O,21,,39 µg/mL
CCN1CCN(c2nc(NN=C3SCC(=O)N3c3ccccc3Cl)nc3ccccc23)CC1,MTCC 183,agar / visual reading,25 µg/mL
O=C(Cn1c(=O)oc2cc(C(=O)c3cccc(F)c3)c(Cl)cc21)c1ccc(Br)cc1,ATCC 90028,,128 µg/mL
CCOC(=O)N1CCN(C(=S)Nc2nc(N3CCN(CC)CC3)c3ccccc3n2)CC1,MTCC 183,agar / visual reading,100 µg/mL
CC1CC1/C=C/C1CC1C1CC1C1CC1C1CC1/C=C/C=C/C(=O)NC[C@H]1O[C@@H](N2CCC(=O)NC2=O)[C@H](O)[C@@H]1O,,,100 µg/mL
Nc1ncnc2c1SC1=NC3=C(C(=O)CCC3)C(c3ccc(F)cc3)N12,Robin Berkho (AUCC-1720),,>40 µg/mL
CC(n1ccn(-c2ccc(-n3ncnn3)cc2)c1=O)C(O)(Cn1cncn1)c1ccc(F)cc1F,TA,,0.002 µg/mL
Clc1nn2cc(-c3ccc(Br)cc3)nc2s1,,agar diffusion,50 µg/mL
NS(=O)(=O)c1ccc(N2N=C(c3ccccc3)CC2c2nnc3c4ccccc4c(=O)[nH]n23)cc1,,,100 µg/mL
O=[n+]1c(Sc2ccccc2)c(CBr)n([O-])c2ccccc21,Clinical isolate 1,,7.8 µg/mL
CC(=O)N1N=C(c2ccc(C)cc2)CC1c1nnc2c3ccccc3c(=O)[nH]n12,,,100 µg/mL
O=C1CCCC2=C1C(c1ccc(F)cc1)N1C(c3ccccc3)=CSC1=N2,Robin Berkho (AUCC-1720),,>40 µg/mL
C=C(C)[C@@H]1CC[C@]2(C(=O)O)CC[C@]3(C)[C@H](CC[C@@H]4[C@@]5(C)CC[C@H](O)C(C)(C)[C@@H]5CC[C@]43C)[C@@H]12,,,>25 µg/mL
CN1C(=O)/C(=C2\S/C(=N/c3nnc(-c4ccc(Cl)cc4)o3)NC2=O)c2ccccc21,ATCC 10231,,16 µg/mL
O=C(N/N=C/c1cc2ccccc2nc1Cl)c1sc(=S)n(-c2ccccc2)c1/N=C/c1ccccc1F,MTCC 227,broth dilution,500 µg/mL
O=Nc1c(-c2cccc(Br)c2)nc2ncccn12,,,5 µg/mL
CN1C(=O)/C(=C2\S/C(=N/c3nnc(-c4ccccc4)o3)NC2=O)c2ccccc21,ATCC 10231,,16 µg/mL
CC(N1CCN(c2ccc(-n3cnn(Cc4ccc(OC(F)(F)F)cc4)c3=O)cc2F)CC1)C(O)(Cn1cncn1)c1ccc(F)cc1F,Y0109,,<0.048 µg/mL
O=C(N/N=C/c1cc2ccccc2nc1Cl)c1sc(=S)n(-c2ccccc2)c1/N=C/c1ccccc1O,MTCC 227,broth dilution,250 µg/mL
O=C(Cn1c(=O)oc2cc(C(=O)c3ccccc3F)c(Cl)cc21)c1ccccc1,ATCC 90028,,128 µg/mL
CCOC(=O)c1c(N)oc2ccc(O)cc12,KCCM 50235,broth dilution,25 µg/mL
COc1cc(/C=N/c2c(C(=O)N/N=C/c3cc4ccccc4nc3Cl)sc(=S)n2-c2ccccc2)cc(OC)c1OC,MTCC 227,broth dilution,>1000 µg/mL
S=C(Nc1cccc(Cl)c1)Nc1nc(N2CCN(c3ccccc3)CC2)c2ccccc2n1,MTCC 183,agar / visual reading,25 µg/mL
CC(N1CCN(c2ccc(-n3cnn(Cc4ccc(OC(F)(F)F)cc4)c3=O)cc2)CC1)C(O)(Cn1cncn1)c1ccc(F)cc1F,Y0109,,<0.048 µg/mL
CC(N1CCN(c2ccc(-n3nccn3)cc2)C1=O)C(O)(Cn1cncn1)c1ccc(F)cc1F,TA,,<0.008 µg/mL
CC(=O)N1N=C(c2ccccc2)CC1c1nnc2c3ccccc3c(=O)[nH]n12,,,50 µg/mL
O=[N+]([O-])c1ccccc1NC(=S)Nc1nc(N2CCN(c3ccccc3)CC2)c2ccccc2n1,MTCC 183,agar / visual reading,50 µg/mL
COc1ccc(-c2nnc(Nc3nc(O)c(C4=c5cc(OC(F)(F)F)ccc5=NC4=O)s3)o2)cc1,ATCC 10231,,16 µg/mL
COc1ccc(C(c2ccccc2)(c2ccc(OC)cc2)n2cnc3ccccc32)cc1,,,1 µM
CCCCc1ccc(NC(=S)c2cc(Cl)ccc2O)cc1,ATCC 44859,,>125 µM
Cc1ccc(-c2nc3ncccn3c2N=O)cc1,,,30 µg/mL
O=C1N=c2ccccc2=C1c1sc(Nc2nnc(-c3ccccc3)o2)nc1O,ATCC 10231,,16 µg/mL
Cc1c(Cl)[n+](=O)c2cc(Cl)ccc2n1[O-],Clinical isolate 2,,15.6 µg/mL
Cc1nc(-c2ccc(-n3cnn(C(C)C(O)(Cn4cncn4)c4ccc(F)cc4F)c3=O)cc2)cs1,TA,,0.002 µg/mL
COc1c(O)ccc2c(=O)c3cccc(O)c3oc12,,,>25 µg/mL
C[C@H](N)C(=O)NC(C(=O)O)n1cc(F)c(=O)[nH]c1=O,B311,,25 µg/mL
COC(=O)C1=C[C@H](O)[C@H](O)[C@@H](O[C@@H](C(N)=O)[C@H]2O[C@@H](n3ccc(=O)[nH]c3=O)[C@H](O)[C@@H]2OC)O1,YU-1200,,>100 µg/mL
CCC(C)CC(C)CCCCCCCCC(=O)N[C@H]1C[C@@H](O)[C@@H](OCCN)NC(=O)[C@@H]2[C@@H](O)CCN2C(=O)[C@H]([C@@H](O)CCN)NC(=O)[C@H]([C@H](O)[C@@H](O)c2ccc(O)cc2)NC(=O)[C@@H]2C[C@@H](O)CN2C(=O)[C@H]([C@H](C)O)NC1=O,ATCC64550,,0.03 µg/mL
Cc1ccc(-c2cn3nc([N+](=O)[O-])sc3n2)cc1,,agar diffusion,>75 µg/mL
O=C(/C=C/c1cc(O)ccc1O)c1ccccc1,SDAU5,,100 µg/mL
Cc1c(O)cccc1C(=O)N[C@@H](CSc1ccccc1)[C@H](O)CN1C[C@H]2CCCC[C@H]2C[C@H]1C(=O)NC(C)(C)C,I159A,,>64 µg/mL
O=C(O)c1ccc(O)c(O)c1,,,>25 µg/mL
O=C(N/N=C/c1cc2ccccc2nc1Cl)c1sc(=S)n(-c2ccccc2)c1/N=C/c1ccccc1Cl,MTCC 227,broth dilution,500 µg/mL
COc1ccc(-c2nnc(Nc3nc(O)c(C4=c5cc(Br)ccc5=NC4=O)s3)o2)cc1,ATCC 10231,,16 µg/mL
C[C@@H](c1ncncc1F)[C@](O)(Cn1cncn1)c1ccc(F)cc1F,OY-2-76 fluconazole-susceptible,,0.003 µg/mL
O=C(/C=C/c1ccc(O)cc1O)c1ccccc1,SDAU1,,75 µg/mL
O=[N+]([O-])c1ccc(-c2cn3nc([N+](=O)[O-])sc3n2)cc1,,agar diffusion,>75 µg/mL
O=CN1C(=S)NC2=C(C(=O)CCC2)C1c1ccc(F)cc1,Robin Berkho (AUCC-1720),,>40 µg/mL

8 of the rows above, restated:

smiles,strain,method,result
C[C@H](N)C(=O)NC(C(=O)O)n1cc(F)c(=O)[nH]c1=O,B311,,25 µg/mL
C[C@H](N)C(=O)N[C@@H](C(=O)O)n1cc(F)c(=O)[nH]c1=O,B311,,>100 µg/mL
S=C(Nc1cccc(Cl)c1)Nc1nc(N2CCN(c3ccccc3)CC2)c2ccccc2n1,MTCC 183,agar / visual reading,25 µg/mL
CC(n1ccn(-c2ccc(-n3ncnn3)cc2)c1=O)C(O)(Cn1cncn1)c1ccc(F)cc1F,TA,,0.002 µg/mL
O=C1N=c2ccccc2=C1c1sc(Nc2nnc(-c3ccc(Cl)cc3)o2)nc1O,ATCC 10231,,16 µg/mL
CCC(C)CC(C)CCCCCCCCC(=O)N[C@H]1C[C@@H](O)[C@H](NCCN)NC(=O)[C@@H]2[C@@H](O)CCN2C(=O)[C@H]([C@H](O)CCN)NC(=O)[C@H]([C@H](O)[C@@H](O)c2ccc(O)cc2)NC(=O)[C@@H]2C[C@@H](O)CN2C(=O)[C@H]([C@@H](C)O)NC1=O,Isolate 489 (AMB FCZ 5FC-susceptible),,0.25 µg/mL
COc1ccc(-c2nnc(Nc3nc(O)c(C4=c5cc(OC(F)(F)F)ccc5=NC4=O)s3)o2)cc1,ATCC 10231,,16 µg/mL
CC(=O)N1N=C(c2ccccc2)CC1c1nnc2c3ccccc3c(=O)[nH]n12,,,50 µg/mL